Measured values from several laboratories, pooled; numbers as filed in NIAID ChemDB.

All rows: tests on isolated targets; agent: Toxoplasma gondii

An empty or dashed field is not shown. Neighbouring rows are from separate reports. Percent inhibition refers to the dose given; in toxicity tests it is the harm to the cells. ICn is the concentration giving n% inhibition.

SMILES | strain | dose | protein | read-out | result
Nc1nc(N)c2nc(-c3ccccc3)c(N)nc2n1 | RH | - | DHFR | IC50 | 4.5 µM
COC(=O)c1nc[nH]c1CO | RH | - | Phosphoribosyltransferase | IC50 | >900 µM
Cc1cc(C(=O)O)cc(C)c1N(C)Cc1cnc2nc(N)nc(N)c2n1 | RH | - | DHFR | IC50 | 0.28 µM
Nc1ccc(S(=O)(=O)Nc2ccccn2)cc1 | - | - | DHPS | IC50 | 1000 µM
Nc1ccnc(=O)[nH]1 | RH | - | Phosphoribosyltransferase | Ki | 476 µM
Nc1ccc(S(=O)(=O)Nc2cnc3ccccc3n2)cc1 | - | - | DHPS | IC50 | 450 µM
O=C1CC(=O)NC(=S)N1 | RH | - | Uracil phosphoribosyltransferase | IC50 | >2000 µM
Cc1nc(N)[nH]c(=O)c1CCCNS(=O)(=O)c1ccc(N)cc1 | - | - | DHPS | IC50 | <270 µM
O=C1NC(=O)C([N+](=O)[O-])C(=O)N1 | RH | - | Uracil phosphoribosyltransferase | IC50 | >2000 µM
Nc1nc2[nH]ccc2c(=O)[nH]1 | RH | - | Phosphoribosyltransferase | Ki | 93 µM
CC1(C)N=C(N)N=C(N)N1c1ccc(C(=O)Nc2ccc(S(=O)(=O)F)cc2)cc1 | RH | - | DHFR | IC50 | >100 µM
O=c1[nH]cccc1O | RH | 2000 µM | Uracil phosphoribosyltransferase | inhibition | <5%
CCc1nc(N)nc(N)c1-c1ccc(Cl)c([N+](=O)[O-])c1 | RH | - | DHFR | IC50 | 0.013 µM
O=C1CC=Cc2[nH]ccc21 | RH | 900 µM | Phosphoribosyltransferase | inhibition | <10%
O=c1ccn(C2CCCCC2)c(=O)[nH]1 | RH | - | Uracil phosphoribosyltransferase | IC50 | >2000 µM
CC1(C)N=C(N)N=C(N)N1c1cccc(OCc2cccc(N)c2)c1 | RH | - | DHFR | IC50 | 0.27 µM
O=C(O)c1c(O)cncc1O | RH | 2000 µM | Uracil phosphoribosyltransferase | inhibition | <5%
Nc1nccc(=O)[nH]1 | RH | - | Phosphoribosyltransferase | Ki | 616 µM
O=c1cc(O)cc[nH]1 | RH | - | Uracil phosphoribosyltransferase | IC50 | >2000 µM
Nc1ccc(S(=O)(=O)Nc2cc(Cl)cc(Cl)c2)cc1 | - | - | DHPS | Ki | 1 µM
O=c1[nH]cc(Cl)c(=O)[nH]1 | RH | 2000 µM | Uracil phosphoribosyltransferase | inhibition | <5%
CC1(C)N=C(N)N=C(N)N1c1ccc(OCCOc2ccc(NC(=O)CBr)cc2)cc1 | RH | - | DHFR | IC50 | 0.011 µM
Nc1ccnc(=O)[nH]1 | RH | - | Uracil phosphoribosyltransferase | IC50 | >2000 µM
O=c1cc[nH]c(=O)[nH]1 | RH | - | Phosphoribosyltransferase | Ki | 699 µM

Repeating the first 2 entries:

SMILES	strain	dose	protein	read-out	result
Nc1nc(N)c2nc(-c3ccccc3)c(N)nc2n1	RH	-	DHFR	IC50	4.5 µM
COC(=O)c1nc[nH]c1CO	RH	-	Phosphoribosyltransferase	IC50	>900 µM